Compound potency records, mixed from different reports. Data source: NIAID ChemDB in PubChem.

Common to all: whole-cell or culture tests; organism: Hepatitis C virus; cells: Huh7; endpoint: EC50

Two numbers with a dash give a range or band. Neighbouring rows are from separate reports. An empty or dashed field is not shown. ECn is the concentration giving n% inhibition of infection, replication or growth.

CC(C)CC[C@@]1(C)C(=O)C(C2=NS(=O)(=O)c3cc(NS(C)(=O)=O)ccc3N2)=C(O)c2ccccc21 ; strain or isolate: 2a ; method: luciferase ; value: 12.6 µM
C[C@@H](NC(=O)c1ccc2c(c1)nc(-c1ccoc1)n2C1CCCCC1)C(=O)Nc1ccc(/C=C/C(=O)O)cc1 ; value: 5–50 µM
COc1cccc(CC(=O)N/N=C/c2ncccc2OS(=O)(=O)c2ccc(C(F)(F)F)cc2)c1 ; method: replicon ; value: 5–50 µM
C[C@H]1CCC[C@H](C)C1n1c(-c2ccco2)nc2cc(C(=O)NC3(C(=O)Nc4ccc(/C=C/C(=O)O)cc4)CCCC3)ccc21 ; value: ≤5 µM
Cc1cc(OCc2ccccc2)ccc1NC(N)=S ; method: replicon ; value: <1 µM
N#Cc1c(Nc2cc(Cl)cc(Cl)c2)s[nH]c1=O ; method: replicon ; value: <1 µM
CNC(=O)c1c(-c2ccc(F)cc2)oc2cc(N(CC(C)C)S(C)(=O)=O)c(O)cc12 ; method: replicon ; value: <30 µM
CCOc1nc(N)nc2ccc(-c3cccc(NS(=O)(=O)c4c(C)noc4C)c3)nc12 ; method: replicon ; value: 0.3–1 µM
CNC(=O)c1c(-c2ccc(F)cc2)oc2cc(N(C)S(C)(=O)=O)c(C3CC3)cc12 ; method: replicon ; value: <1 µM
NC(=S)Nc1ccc(N2CCc3ccccc3C2)c(F)c1 ; method: replicon ; value: <1 µM
C=CC1CC1(NC(=O)[C@@H]1C[C@@H](OC(=O)Nc2ccccc2-n2nccn2)CN1C(=O)[C@@H](NC(=O)OC(C)(C)C)C(C)(C)C)C(=O)NS(=O)(=O)C1CC1 ; strain or isolate: 1b ; method: replicon ; value: 0.1–1 µM
N#Cc1c(Nc2ccc(Cl)c(Cl)c2)s[nH]c1=O ; method: replicon ; value: <1 µM
CN(C)c1ccc(C(=O)N/N=C/c2ccccc2OS(=O)(=O)c2ccc(C(F)(F)F)cc2)cc1 ; method: replicon ; value: 5–50 µM
CNC(=O)c1c(-c2ccc(F)cc2)oc2cc(-c3noc(C)n3)c(OC(C)C)cc12 ; method: replicon ; value: <1 µM
COc1cccc(CC(=O)N/N=C/c2ccccc2OS(=O)(=O)c2ccc(OC)cc2OC)c1 ; method: replicon ; value: <5 µM
N#Cc1c(NC2CCc3ccccc32)s[nH]c1=O ; method: replicon ; value: 1–10 µM
COc1ccc(CC(=O)N2CCC[C@@H]2C(=O)Nc2ccc(C3SC(=Nc4ccc(N5CCOCC5)cc4)N(Cc4ccccn4)C3=O)cc2)cc1 ; method: replicon ; value: 0.1–1 µM
CCOc1nc(N)nc2ccc(-c3cccc(NS(=O)(=O)c4ccc(C)cc4)c3)nc12 ; method: replicon ; value: 0.3–1 µM
C/C(=C\c1ccc(NC(=O)C2(NC(=O)c3ccc4c(c3)nc(-c3ccoc3)n4C3CCCCC3)CCCC2)cc1)C(=O)O ; value: ≤5 µM
Cc1cc(NC(N)=S)ccc1N1CCCCC1 ; method: replicon ; value: <1 µM
C=CC1CC1(NC(=O)[C@@H]1C[C@@H](OC(=O)Nc2cc(Cl)cc(Cl)c2)CN1C(=O)[C@@H](NC(=O)OC(C)(C)C)C(C)(C)C)C(=O)NS(=O)(=O)C1CC1 ; strain or isolate: 1b ; method: replicon ; value: 0.1–1 µM
CCN(CC)c1nc(COc2cc3c(C(=O)NC)c(-c4ccc(F)cc4)oc3cc2N(C)S(C)(=O)=O)ns1 ; method: replicon ; value: <1 µM
N#Cc1c(Nc2ccc(Cl)cc2Cl)s[nH]c1=O ; method: replicon ; value: 10–50 µM
CNC(=O)c1c(-c2ccc(N3CCCC3)cc2)oc2ccc(OC(C)C)cc12 ; method: replicon ; value: <30 µM
CS(=O)(=O)CCNc1nc(N)nc2ccc(-c3cccc(NS(C)(=O)=O)c3)nc12 ; method: replicon ; value: 0.3–1 µM
C[C@@H](NC(=O)CCc1ccccc1)C(=O)Nc1ccc(C2SC(=Nc3cccc(F)c3)N(Cc3ccco3)C2=O)cc1 ; method: replicon ; value: 1–5 µM
CNC(=O)c1c(-c2ccc(F)cc2)oc2cc(N(C)S(C)(=O)=O)c(OCC(=O)Nc3nncs3)cc12 ; method: replicon ; value: <1 µM
CCOc1nc(N)nc2ccc(-c3ccc(NC(=O)C4(N)CC4)cc3)nc12 ; method: replicon ; value: <0.3 µM
C=CC1CC1(NC(=O)[C@@H]1C[C@@H](OC(=O)N2CCCC2)CN1C(=O)[C@@H](NC(=O)OC(C)(C)C)C(C)(C)C)C(=O)NS(=O)(=O)C1CC1 ; strain or isolate: 1b ; method: replicon ; value: >10 µM
O=C(Cc1cccc(Cl)c1)N/N=C/c1ccccc1NS(=O)(=O)c1ccc(C(F)(F)F)cc1 ; method: replicon ; value: >50 µM
CCCCCc1ccc(NC(N)=S)cc1 ; method: replicon ; value: <1 µM
CCOc1nc(N)nc2ccc(-c3ccc(NC(=O)C(C)(C)N)cc3)nc12 ; method: replicon ; value: <0.3 µM
NC(=S)Nc1cccc(NCC2CCCCC2)c1 ; method: replicon ; value: <1 µM
O=C(O)/C=C/c1ccc(NC(=O)C2(NC(=O)c3ccc4c(c3)nc(-c3ccco3)n4C3C[C@H]4CC[C@@H]3C4)CCCC2)cc1 ; value: ≤5 µM
C=CC1CC1(NC(=O)[C@@H]1C[C@@H](OC(=O)Nc2ccccc2C(=O)c2ccccc2)CN1C(=O)[C@@H](NC(=O)OC(C)(C)C)C(C)(C)C)C(=O)NS(=O)(=O)C1CC1 ; strain or isolate: 1b ; method: replicon ; value: 0.1–1 µM
CNC(=O)c1c(-c2ccccc2F)oc2ccc(OC)cc12 ; method: replicon ; value: <10 µM
NC(=S)Nc1ccc(N2CCCCC2)c(C(F)(F)F)c1 ; method: replicon ; value: <1 µM
CNC(=O)c1c(-c2ccc(F)cc2)oc2ccc(OC(C)C)c(N(Cc3ccccc3)S(C)(=O)=O)c12 ; method: replicon ; value: <1 µM
O=C(Cc1ccncc1)N/N=C/c1ccccc1OS(=O)(=O)c1ccc(C(F)(F)F)cc1 ; method: replicon ; value: 5–50 µM
Cc1c(C(=O)N[C@H](C)C(=O)Nc2ccc(/C=C/C(=O)O)cc2)ccc2c1nc(-c1ccoc1)n2C1CCCCC1 ; value: 5–50 µM
N#Cc1c(Nc2ccc(Br)cn2)s[nH]c1=O ; method: replicon ; value: 10–50 µM
CC(NC(N)=S)c1ccc(OCc2ccccc2)cc1 ; method: replicon ; value: <1 µM
C[C@@H](NC(=O)OCc1ccccc1)C(=O)Nc1ccc(C2SC(=Nc3cccc(Cl)c3)N(Cc3ccco3)C2=O)cc1 ; method: replicon ; value: 0.1–1 µM
COc1ccccc1Nc1s[nH]c(=O)c1C#N ; method: replicon ; value: 10–50 µM
C=CC1CC1(NC(=O)[C@@H]1C[C@@H](OC(=O)Nc2c(F)cccc2F)CN1C(=O)[C@@H](NC(=O)OC(C)(C)C)C(C)(C)C)C(=O)NS(=O)(=O)C1CC1 ; strain or isolate: 1b ; method: replicon ; value: >10 µM
CNC(=O)c1c(-c2ccc(F)cc2)oc2cc(C(=O)CO)c(OC)cc12 ; method: replicon ; value: <10 µM
C=CC1CC1(NC(=O)[C@@H]1C[C@@H](OC(=O)Nc2cc(C(C)=O)ccc2N2CCC(C(=O)OCC)CC2)CN1C(=O)[C@@H](NC(=O)OC(C)(C)C)C(C)(C)C)C(=O)NS(=O)(=O)C1CC1 ; strain or isolate: 1b ; method: replicon ; value: 0.1–1 µM
CCCCC#Cc1ccc(NC(N)=S)cc1C(F)(F)F ; method: replicon ; value: <1 µM
C=CC1CC1(NC(=O)[C@@H]1C[C@@H](OC(=O)NCc2ccccc2C)CN1C(=O)[C@@H](NC(=O)OC(C)(C)C)C(C)(C)C)C(=O)NS(=O)(=O)C1CC1 ; strain or isolate: 1b ; method: replicon ; value: 1–10 µM
CN1C(=O)C(c2ccc(NC(=O)[C@H]3CCCN3C(=O)OCc3ccccc3)cc2)SC1=NCc1ccccn1 ; method: replicon ; value: 0.1–1 µM
C=CC1CC1(NC(=O)[C@@H]1C[C@@H](OC(=O)N(CC)CC)CN1C(=O)[C@@H](NC(=O)OC(C)(C)C)C(C)(C)C)C(=O)NS(=O)(=O)C1CC1 ; strain or isolate: 1b ; method: replicon ; value: 1–10 µM
N#Cc1c(Nc2ccccc2)s[nH]c1=O ; method: replicon ; value: 1–10 µM

Repeating the final 8 entries:

SMILES,strain or isolate,method,value
C=CC1CC1(NC(=O)[C@@H]1C[C@@H](OC(=O)Nc2c(F)cccc2F)CN1C(=O)[C@@H](NC(=O)OC(C)(C)C)C(C)(C)C)C(=O)NS(=O)(=O)C1CC1,1b,replicon,>10 µM
CNC(=O)c1c(-c2ccc(F)cc2)oc2cc(C(=O)CO)c(OC)cc12,,replicon,<10 µM
C=CC1CC1(NC(=O)[C@@H]1C[C@@H](OC(=O)Nc2cc(C(C)=O)ccc2N2CCC(C(=O)OCC)CC2)CN1C(=O)[C@@H](NC(=O)OC(C)(C)C)C(C)(C)C)C(=O)NS(=O)(=O)C1CC1,1b,replicon,0.1–1 µM
CCCCC#Cc1ccc(NC(N)=S)cc1C(F)(F)F,,replicon,<1 µM
C=CC1CC1(NC(=O)[C@@H]1C[C@@H](OC(=O)NCc2ccccc2C)CN1C(=O)[C@@H](NC(=O)OC(C)(C)C)C(C)(C)C)C(=O)NS(=O)(=O)C1CC1,1b,replicon,1–10 µM
CN1C(=O)C(c2ccc(NC(=O)[C@H]3CCCN3C(=O)OCc3ccccc3)cc2)SC1=NCc1ccccn1,,replicon,0.1–1 µM
C=CC1CC1(NC(=O)[C@@H]1C[C@@H](OC(=O)N(CC)CC)CN1C(=O)[C@@H](NC(=O)OC(C)(C)C)C(C)(C)C)C(=O)NS(=O)(=O)C1CC1,1b,replicon,1–10 µM
N#Cc1c(Nc2ccccc2)s[nH]c1=O,,replicon,1–10 µM